According to article PMC9861092, “Napyradiomycin A4 and Its Relate Compounds, a New Anti-PRV Agent and Their Antibacterial Activities, from Streptomyces kebangsaanensis WS-68302” (Molecules, 2023):

Tested on: PRV (Pseudorabies virus)

How did the “TI (therapeutic index = CC50/IC50)” value turn out when `CC(C)=CC[C@]12O[C@@]1(C/C=C(\C)CC/C=C(\C)C(=O)O)C(=O)c1cc(O)cc(O)c1C2=O` [Compound 6, A80915G-8″-acid] was run?
The value was < 2.0.
